SMILES strings stand for the structures.

The chains behind the UniProt entries cited, without tags or fusion partners. Residues count along the entry.
UniProt Q9WMX2, 2420-2992 limits assumed: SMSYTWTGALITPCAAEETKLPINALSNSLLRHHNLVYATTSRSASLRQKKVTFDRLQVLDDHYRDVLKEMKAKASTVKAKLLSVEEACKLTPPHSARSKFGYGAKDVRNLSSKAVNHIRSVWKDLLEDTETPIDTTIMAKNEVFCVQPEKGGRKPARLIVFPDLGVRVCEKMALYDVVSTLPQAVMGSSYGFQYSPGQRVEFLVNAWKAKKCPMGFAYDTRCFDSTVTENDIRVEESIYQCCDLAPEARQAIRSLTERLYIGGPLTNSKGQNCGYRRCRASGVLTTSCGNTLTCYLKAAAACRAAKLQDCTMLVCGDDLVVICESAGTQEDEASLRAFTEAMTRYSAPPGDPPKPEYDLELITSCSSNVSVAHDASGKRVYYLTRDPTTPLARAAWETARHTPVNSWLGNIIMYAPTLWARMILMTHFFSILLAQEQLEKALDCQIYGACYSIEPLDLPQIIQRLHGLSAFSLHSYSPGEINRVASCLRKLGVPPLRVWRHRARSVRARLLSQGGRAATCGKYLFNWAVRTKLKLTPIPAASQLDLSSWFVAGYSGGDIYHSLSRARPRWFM

The first test addresses HCV NS5B RdRp genotype 1b (Hepatitis C virus genotype 1b, UniProt Q9WMX2). Kind of test: HCV NS5B RdRp enzyme assay. In kind it is biochemical. The following applies: HCV RdRp genotype 1b enzyme, C-terminal 18 aa truncated; average of single point IC50 values. The protocol:
HCV NS5B RdRp cloning, expression and purification. The cDNA encoding the NS5B protein of HCV, genotype 1b, was cloned into the pET21a expression vector. The protein was expressed with an 18 amino acid C-terminal truncation to enhance the solubility. The E. coli competent cell line BL21(DE3) was used for expression of the protein. Cultures were grown at 37° C. for ˜4 hours until the cultures reached an optical density of 2.0 at 600 nm. The cultures were cooled to 20° C. and induced with 1 mM IPTG. Fresh ampicillin was added to a final concentration of 50 ug/ml and the cells were grown overnight at 20° C.
Cell pellets (3L) were lysed for purification to yield 15-24 mgs of purified NS5B. The lysis buffer consisted of 20 mM Tris-HCl, pH 7.4, 500 mM NaCl, 0.5% triton X-100, 1 mM DTT, 1 mM EDTA, 20% glycerol, 0.5 mg/ml lysozyme, 10 mM MgCl2, 15 ug/ml deoxyribonuclease I, and Complete TM protease inhibitor tablets (Roche). After addition of the lysis buffer, frozen cell pellets were resuspended using a tissue homogenizer. To reduce the viscosity of the sample, aliquots of the lysate were sonicated on ice using a microtip attached to a Branson sonicator. The sonicated lysate was centrifuged at 100,000×g for 1 hr at 4° C. and filtered through a 0.2 μm filter unit (Corning).
The protein was purified using three sequential chromatography steps: Heparin sepharose CL-6B, polyU sepharose 4B, and Hitrap SP sepharose (Pharmacia). The chromatography buffers were identical to the lysis buffer but contained no lysozyme, deoxyribonuclease I, MgCl2 or protease inhibitor and the NaCl concentration of the buffer was adjusted according to the requirements for charging the protein onto the column. Each column was eluted with a NaCl gradient which varied in length from 5-50 column volumes depending on the column type. After the final chromatography step, the resulting purity of the enzyme is >90% based on SDS-PAGE analysis. The enzyme was aliquoted and stored at −80° C.
HCV NS5B RdRp enzyme assay. HCV RdRp genotype 1b assays were run in assay buffer composed of 20 mM Tris-HCl, pH 7.5, 2.5 mM KCl, 5 mM MgCl2, 1 mM DTT, 1.6 U RNAse inhibitor (Promega N2515), in 96 well plates (Falcon 3918). All compounds were serially diluted in DMSO and diluted further in assay buffer such that the final concentration of DMSO in the assay was 2%. Compounds were serially diluted (3-fold each time) for a 7 point inhibition analysis. HCV RdRp genotype 1b enzyme was used at a final concentration of 28 nM. A polyA template was used at 28 nM, and the oligo-dT12-18 primer was used at 840 nM final concentration. Preannealed primer and template were obtained commercially (Amersham 27-787802). ^3H-UTP was used at 0.125 μCi (1 μM total UTP). Reaction was initiated by the addition of enzyme. Reactions were incubated at 30° C. for 45 min, and stopped by adding 30 ul of 20% ice cold TCA. Plates were chilled for 30 minutes and harvested onto Unifilter-96, GF/B plates (Packard, 6005177) using a Packard FilterMate Cell Harvester. The harvest plates were prewashed 3 times, 200 ul/well, with 100 mM NaPPi. Harvested filters were washed 30 times, 200 ul/well, with distilled water followed by ethanol. Filter plates were dried, and 30 ul/well microscint-20 was added. Plates were read on a Packard Top Count NXT.
The IC50 values for compounds were determined using […] different [I], combined with 7 nM enzyme, 800 ng of the template-primer polyC/oligoG12 (1:5 molar ratio), and 0.7 uM of ^3H GTP containing 1 uCi. The observed fractional activity (fa=vi/vo) was used in the equation IC50=[I]/(1/fa-1) to determine a single point IC50 value. Typically, the single point IC50 values derived from [I] that produced fractional activities in the range of 0.1 to 0.8 relative to the uninhibited control were averaged to calculate the IC50 value for each compound.
In the case of `CC(C)(C)OC(=O)n1cccc1-c1ccc(C(=O)O)cc1COc1ccc(-c2nc3cc(-c4nnn[nH]4)ccc3n2C2CCCCC2)cc1`, the IC50 turned out to be 460 nM.
The same measure, in the same setting: the result for `COc1ccc(-c2ccc(C(=O)NC(C)C(=O)O)cc2COc2ccc(-c3nc4cc(-c5nnn[nH]5)ccc4n3C3CCCCC3)cc2)cc1OC` (centres unmarked) reads 280 nM; that for `COc1ccc(-c2ccc(C(=O)N3CCC(O)CC3)cc2COc2ccc(-c3nc4cc(-c5nnn[nH]5)ccc4n3C3CCCCC3)cc2)cc1OC`, 300 nM; that for `COc1ncc(-c2ccc(C(=O)O)cc2COc2ccc(-c3nc4cc(-c5nnn[nH]5)ccc4n3C3CCCCC3)cc2)c(OC)n1`, 1280 nM.
On the same count and under the same terms, the value for `CC(C)(C)OC(=O)C(Cc1cc2ccccc2[nH]1)NC(=O)c1ccc(-c2ccsc2)c(COc2ccc(-c3nc4cc(-c5nnn[nH]5)ccc4n3C3CCCCC3)cc2)c1` (centres unmarked) was 1200 nM; that for `CN1CCN(C(=O)c2ccc(-c3ccc(F)c(Cl)c3)c(COc3ccc(-c4nc5cc(-c6nnn[nH]6)ccc5n4C4CCCCC4)cc3)c2)CC1` was 350 nM; that for `O=C(NC(Cc1cc2ccccc2[nH]1)C(=O)O)c1ccc(-c2ccsc2)c(COc2ccc(-c3nc4cc(-c5nnn[nH]5)ccc4n3C3CCCCC3)cc2)c1` (centres unmarked) was 580 nM.
Same read-out and setting: the result for `CC(C)(C)OC(=O)C(Cc1cc2ccccc2[nH]1)NC(=O)c1ccc(-c2cccc(O)c2)c(COc2ccc(-c3nc4cc(-c5nnn[nH]5)ccc4n3C3CCCCC3)cc2)c1` (centres unmarked) reads 1300 nM; that for `CC(NC(=O)c1ccc(-c2ccsc2)c(COc2ccc(-c3nc4cc(-c5nnn[nH]5)ccc4n3C3CCCCC3)cc2)c1)C(=O)OC(C)(C)C` (centres unmarked), 2600 nM; that for `COc1ccc(-c2ccc(C(=O)NC(Cc3cc4ccccc4[nH]3)C(=O)OC(C)(C)C)cc2COc2ccc(-c3nc4cc(-c5nnn[nH]5)ccc4n3C3CCCCC3)cc2)cc1OC` (centres unmarked), 2200 nM.
With `NC(=O)c1ccc(-c2ccc3[nH]cc(C(=O)C(F)(F)F)c3c2)c(COc2ccc(-c3nc4cc(-c5nnn[nH]5)ccc4n3C3CCCCC3)cc2)c1`, the IC50 was found to be 330 nM.
The same measure, in the same setting: the value for `O=C(O)c1ccc(-c2ccc(C(=O)O)cc2COc2ccc(-c3nc4cc(-c5nnn[nH]5)ccc4n3C3CCCCC3)cc2)cc1` was 10 nM; that for `O=C(O)c1ccc(-c2cc3ccccc3[nH]2)c(COc2ccc(-c3nc4cc(-c5nnn[nH]5)ccc4n3C3CCCCC3)cc2)c1` was 120 nM; that for `COc1ccc(-c2ccc(C(=O)N3CCN(C)CC3)cc2COc2ccc(-c3nc4cc(-c5nnn[nH]5)ccc4n3C3CCCCC3)cc2)cc1OC` was 430 nM.
Still for that read-out and setting: the result for `CS(=O)(=O)c1ccc(-c2ccc(C(=O)O)cc2COc2ccc(-c3nc4cc(-c5nnn[nH]5)ccc4n3C3CCCCC3)cc2)cc1` reads 80 nM; that for `O=C(NC(Cc1cc2ccccc2[nH]1)C(=O)O)c1ccc(-c2ccc(F)c(Cl)c2)c(COc2ccc(-c3nc4cc(-c5nnn[nH]5)ccc4n3C3CCCCC3)cc2)c1` (centres unmarked), 380 nM; that for `O=C(NC(Cc1cc2ccccc2[nH]1)C(=O)O)c1ccc(-c2cccc(O)c2)c(COc2ccc(-c3nc4cc(-c5nnn[nH]5)ccc4n3C3CCCCC3)cc2)c1` (centres unmarked), 680 nM.
The same measure, in the same setting: the value for `Cn1ccc2cc(-c3ccc(C(=O)O)cc3COc3ccc(-c4nc5cc(-c6nnn[nH]6)ccc5n4C4CCCCC4)cc3)ccc21` was 90 nM; that for `O=C(c1ccc(-c2ccc(F)c(Cl)c2)c(COc2ccc(-c3nc4cc(-c5nnn[nH]5)ccc4n3C3CCCCC3)cc2)c1)N1CCC(O)CC1` was 940 nM.

Still in this test, the particulars now being: HCV RdRp genotype 1b enzyme, C-terminal 18 aa truncated; average of single point IC50 values; tested form: TFA.
In turn, `O=C(O)c1ccc(-c2cncnc2)c(COc2ccc(-c3nc4cc(-c5nnn[nH]5)ccc4n3C3CCCCC3)cc2)c1` [Example 4, 3-[[4-[1-Cyclohexyl-5-(1H-tetrazol-5-yl)-1H-benzimidazol-2-yl]phenoxy]methyl]-4-(5-pyrimidinyl)benzoic acid] showed an IC50 of 1040 nM. This counts as single-digit micromolar.
